A mixed list of measured activities; the numbers were collected in NIAID ChemDB.

Shared fields: target-level tests

Neighbouring rows are from separate reports.

compound,endpoint,target,strain or isolate,dose,organism,value
CC(C)c1cc(C(C)C)c(C(=O)Nc2nnc(NCCC(c3ccccc3)c3ccccc3)s2)c(C(C)C)c1,IC50,Polymerase,,,Human cytomegalovirus,>25 µM
COc1ccc(OC)c(CCc2sc3nc(N)nc(N)c3c2C)c1,IC50,Dihydrofolate reductase,TYPE 1,,Cryptosporidium parvum,>10 µM
O=C(CCCCCl)Nc1nnc(NC2CCCCCC2)s1,IC50,Polymerase,,,Human cytomegalovirus,>25 µM
Cc1ccccc1CC1CCc2nc(N)nc(N)c2C1,IC50,Dihydrofolate reductase,TYPE 2,,Cryptosporidium parvum,0.15 µM
Cc1ccc(C(=O)Nc2nnc(NCc3ccc4c(c3)OCO4)s2)cc1,IC50,Polymerase,,,Human cytomegalovirus,>25 µM
O=C(O)c1ccc(N2C(=O)C(=Cc3ccc(-c4ccccc4Cl)o3)SC2=S)cc1,IC50,NS5 polymerase,,,Bovine viral diarrhea virus,≤1 µM
N#Cc1ccc(-c2cncc(N3CCN(c4ccccn4)CC3)n2)cc1,IC50,UL97 kinase,,,Cytomegalovirus,<10 µM
O=C(O)CN1C(=O)C(=Cc2ccc(-c3ccc(Cl)c(Cl)c3)o2)SC1=S,IC50,NS5 polymerase,,,Bovine viral diarrhea virus,≤1 µM
Nc1nc(N)c2nc(CN(c3ccccc3)c3ccccc3)cnc2n1,IC50,Dihydrofolate reductase,TYPE 1,,Cryptosporidium parvum,>10 µM
COc1cccc(N2CCN(c3cncc(-c4ccc(C)cc4)n3)CC2)c1,inhibition,UL97 kinase,,1 µM,Cytomegalovirus,<50%
CCCCCCCC/C=C/CCCCCCCC(=O)Nc1nnc(NCc2ccc(Cl)c(Cl)c2)s1,IC50,Polymerase,,,Human cytomegalovirus,>25 µM
COc1ccc(OC)c(CCc2cc3c(N)nc(N)nc3s2)c1,IC50,Dihydrofolate reductase,TYPE 1,,Cryptosporidium parvum,>10 µM
Cc1cc(C)cc(-c2cncc(N3CCN(c4cccc(C)c4C)CC3)n2)c1,inhibition,UL97 kinase,,10 µM,Cytomegalovirus,>15%
COc1cc(NCc2ccc3nc(N)nc(N)c3c2Cl)c(Br)c(OC)c1OC,IC50,Dihydrofolate reductase,TYPE 1,,Cryptosporidium parvum,>10 µM
Cc1ccc(N2CCN(c3cncc(-c4cccc(C)c4)n3)CC2)cc1,IC50,UL97 kinase,,,Cytomegalovirus,<100 µM
COc1cc(Cc2sc3nc(N)nc(N)c3c2C)c(Br)c(OC)c1OC,IC50,Dihydrofolate reductase,TYPE 2,,Cryptosporidium parvum,0.78 µM
O=C(O)CCN1C(=O)C(=Cc2ccc(-c3cc(C(F)(F)F)ccc3Cl)o2)SC1=S,IC50,NS5 polymerase,,,Bovine viral diarrhea virus,≤1 µM
O=C(/C=C/c1ccccc1)Nc1nnc(NCc2cccc3ccccc23)s1,IC50,Polymerase,,,Human cytomegalovirus,>25 µM
O=C(O)CCN1C(=O)C(=Cc2ccc(-c3ccc(Cl)s3)o2)SC1=S,IC50,NS5 polymerase,,,Bovine viral diarrhea virus,≤1 µM
CCOc1ccc(-c2cncc(N3CCN(c4ccc(F)cc4F)CC3)n2)cc1,inhibition,UL97 kinase,,10 µM,Cytomegalovirus,>15%
COc1cc(CN2CCc3nc(N)nc(N)c3C2)c(Br)c(OC)c1OC,IC50,Dihydrofolate reductase,TYPE 2,,Cryptosporidium parvum,2.1 µM

The last 2 rows once more:

{"compound": "CCOc1ccc(-c2cncc(N3CCN(c4ccc(F)cc4F)CC3)n2)cc1", "endpoint": "inhibition", "target": "UL97 kinase", "dose": "10 µM", "organism": "Cytomegalovirus", "value": ">15%"}
{"compound": "COc1cc(CN2CCc3nc(N)nc(N)c3C2)c(Br)c(OC)c1OC", "endpoint": "IC50", "target": "Dihydrofolate reductase", "strain or isolate": "TYPE 2", "organism": "Cryptosporidium parvum", "value": "2.1 µM"}

Blank or dashed fields: not listed here. ICn: concentration for n% inhibition. Percent inhibition refers to the dose given; in toxicity tests it is the harm to the cells.